{
  "source": "PubChem BioAssay AID2326",
  "about": "(National Center for Advancing Translational Sciences (NCATS), 2010)",
  "note": "The list shows a part of the results, in another mix than the full data. Results filed as inconclusive are left out. Active and inactive are the calls of the source. Calls come from the whole dose curve. Potency is the fitted concentration of half-maximal effect.",
  "data": [
    {"assay": "qHTS Assay for Inhibitors of Influenza NS1 Protein Function; note: actives are rising curves; nearly all actives have a fitted effect of over 50% in size", "conditions": "cell-based NS1 function reporter", "values": [
      {"smiles": "NC(=O)Nc1ccc([As](=O)(O)O)cc1", "Potency": "active: 3.98 µM"}
    ]}
  ]
}
